Data source: PubChem BioAssay AID1224833 (University of Georgia, 2016)

Screen: 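Human genes whose knock-down alters rotavirus replication in monkey cells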 (primary screen)
Cell system: monkey MA104 kidney cells
Reagent: siRNA pool against human genes, 50 nM
Timing: 48 h knock-down before infection; read 24 h after infection
Treatment: infection with rotavirus strain RV3 two days after transfection; infectious dose for this stage not given
Detection: 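z-score of rotavirus antigen signal per well, from a fluorescent immunoassay, relative to non-targeting control wells on the same plate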
Reading the numbers: z-score vs non-targeting control: higher = more rotavirus replication than with non-targeting control
Active means: In these data the active calls have z-score vs non-targeting control at about -1 or lower, or at about 1 or higher
Calls: active = z-score beyond 1 either way; inactive = z-score within 1 of zero
Here is an unselected part of about 12,000 reagents. In the full data, about 5,600 (46%) are marked active. 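Active calls cover z-scores past 1 in both directions, so they include lowered as well as raised rotavirus replication.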

| Target gene | z-score vs non-targeting control | call |
| --- | --- | --- |
| BPIFB1 (BPI fold containing family B member 1) | 1.48 | active |
| TMOD3 (tropomodulin 3) | -0.239 | inactive |
| TTC14 (tetratricopeptide repeat domain 14) | 0.319 | inactive |
| CARMIL3 (capping protein regulator and myosin 1 linker 3) | 2.65 | active |
| PDXP (pyridoxal phosphatase) | -1.66 | active |
| LY6H (lymphocyte antigen 6 family member H) | 0.844 | inactive |
| NOS3 (nitric oxide synthase 3) | -0.491 | inactive |
| RPL21 (ribosomal protein L21) | -0.154 | inactive |
| OR5H14 (olfactory receptor family 5 subfamily H member 14) | -0.742 | inactive |
| KICS2 (KICSTOR subunit 2) | -1.77 | active |
| NSUN7 (NOP2/Sun RNA methyltransferase family member 7) | 1.2 | active |
| KCTD11 (potassium channel tetramerization domain containing 11) | -0.748 | inactive |
| PRPH2 (peripherin 2) | 0.535 | inactive |
| HS6ST3 (heparan sulfate 6-O-sulfotransferase 3) | -0.994 | inactive |
| NCBP2 (nuclear cap binding protein subunit 2) | -0.0534 | inactive |
| SNX14 (sorting nexin 14) | -2.35 | active |
| PTDSS2 (phosphatidylserine synthase 2) | -0.699 | inactive |

Next part; the last 5 above are carried over.
| Target gene | z-score vs non-targeting control | call |
| --- | --- | --- |
| PRPH2 (peripherin 2) | 0.535 | inactive |
| HS6ST3 (heparan sulfate 6-O-sulfotransferase 3) | -0.994 | inactive |
| NCBP2 (nuclear cap binding protein subunit 2) | -0.0534 | inactive |
| SNX14 (sorting nexin 14) | -2.35 | active |
| PTDSS2 (phosphatidylserine synthase 2) | -0.699 | inactive |
| MED12L (mediator complex subunit 12L) | 0.143 | inactive |
| C9orf40 (chromosome 9 open reading frame 40) | -1.61 | active |
| JAKMIP2 (janus kinase and microtubule interacting protein 2) | -1.01 | active |
| MAJIN (membrane anchored junction protein) | -1.08 | active |
| LRRC37A (leucine rich repeat containing 37A) | -2.08 | active |
| ZNF133 (zinc finger protein 133) | -0.354 | inactive |
| VLDLR (very low density lipoprotein receptor) | 3.05 | active |
| PRADC1 (protease associated domain containing 1) | 1.21 | active |
| CCDC171 (coiled-coil domain containing 171) | 0.647 | inactive |
| TRAF3IP3 (TRAF3 interacting protein 3) | -0.306 | inactive |
| ZNF70 (zinc finger protein 70) | 0 | inactive |
| LEMD3 (LEM domain containing 3) | -0.715 | inactive |
| RAB3GAP2 (RAB3 GTPase activating non-catalytic protein subunit 2) | 0.7 | inactive |
| CNPY2 (canopy FGF signaling regulator 2) | -0.408 | inactive |
| ST7 (suppression of tumorigenicity 7) | -1.66 | active |
| AAR2 (AAR2 splicing factor) | -0.445 | inactive |
| OR4C15 (olfactory receptor family 4 subfamily C member 15) | -0.647 | inactive |
| TMEM14A (transmembrane protein 14A) | -1.58 | active |
| FYB1 (FYN binding protein 1) | -0.753 | inactive |
| IGDCC4 (immunoglobulin superfamily DCC subclass member 4) | -0.27 | inactive |
| GPATCH3 (G-patch domain containing 3) | 1.39 | active |
| SDAD1 (SDA1 domain containing 1) | -2.58 | active |
| CHP2 (calcineurin like EF-hand protein 2) | -1.36 | active |
| GASK1B (golgi associated kinase 1B) | 1.27 | active |
| OR2T27 (olfactory receptor family 2 subfamily T member 27) | -1.47 | active |
| TGDS (TDP-glucose 4,6-dehydratase) | 1.16 | active |
| IL17RE (interleukin 17 receptor E) | -0.0382 | inactive |
| JUN (Jun proto-oncogene, AP-1 transcription factor subunit) | 1.17 | active |
